Measured values from several laboratories, pooled; numbers as filed in NIAID ChemDB.

Shared fields: growth or infection tests

An empty or dashed field is not shown. Rows are shuffled and stem from different studies. A number after MIC or MFC names an inhibition level or a share of isolates. ECn: concentration that inhibits the pathogen or its effect by n%. Inhibition is in % at the dose shown (toxicity tests: loss of growth or viability).

{"structure": "O=C(Nc1ccc2c(O)c(N=Nc3ccc(N=Nc4ccc(S(=O)(=O)O)cc4)cc3)c(S(=O)(=O)O)cc2c1)c1ccccc1", "read by": "cytopathic effect", "cell line": "Human amnion AV3 cells", "agent": "Adenovirus", "endpoint": "inhibition", "strain": "TYPE 3", "tested at": "5 µg/mL", "value": "0%"}
{"structure": "Oc1ccccc1N=Cc1ccc(O)c(O)c1O", "read by": "broth dilution", "agent": "Cryptococcus neoformans", "endpoint": "MIC", "strain": "ATCC 24067", "value": "11.3 µg/mL"}
{"structure": "O=S(=O)([O-])c1cc(O)c2ccccc2c1", "read by": "cytopathic effect", "cell line": "Human conjunctiva cells", "agent": "Herpes simplex virus", "endpoint": "inhibition", "tested at": "50 µg/mL", "value": "0%"}
{"structure": "CCC(CC)[C@H](NC(C)=O)[C@@H]1[C@H](O)[C@@H](C(=O)O)C[C@H]1N=C(N)N", "read by": "visual reading", "cell line": "MDCK", "agent": "Influenza A virus", "endpoint": "EC50", "strain": "H1N1 A/Bayern/09/95", "value": "0.42 µM"}
{"structure": "C=CCc1ccc(O)c(OC)c1", "read by": "turbidity", "agent": "Candida glabrata", "endpoint": "MIC90", "strain": "3249", "value": "495 µg/mL"}
{"structure": "Nc1nc2c(ncn2COCCO)c(=O)[nH]1", "read by": "plaque count", "cell line": "HELF", "agent": "Varicella zoster virus", "endpoint": "inhibition", "strain": "Kawaguchi", "tested at": "10 µg/mL", "value": "100%"}
{"structure": "Oc1ccccc1N=Cc1cccc(O)c1O", "agent": "Cryptococcus neoformans", "endpoint": "MIC99", "strain": "C-3-1", "value": "2.8 µg/mL"}
{"structure": "Cc1cn([C@@H]2O[C@H](CO)[C@@H](O)[C@@H]2O)c(=O)[nH]c1=O", "read by": "plaque count", "cell line": "HELF", "agent": "Varicella zoster virus", "endpoint": "inhibition", "strain": "Kawaguchi", "tested at": "1 µg/mL", "value": "100%"}
{"structure": "CCOC(=O)c1ccc(OCCC2CCN(c3ccc(C)nn3)CC2)cc1", "read by": "neutral red", "cell line": "KB", "agent": "Rhinovirus", "endpoint": "EC50", "strain": "2268-CV37 (ICAM-1 receptor group 60)", "value": "0.038 µM"}
{"structure": "Cc1cc(CCCOc2c(C)cc(-c3noc(C(F)(F)F)n3)cc2C)on1", "read by": "cytopathic effect / visual reading", "cell line": "OHIO HELA-I", "agent": "Rhinovirus", "endpoint": "EC50", "strain": "Isolate 6", "value": "0.1 µg/mL"}
{"structure": "Oc1ccccc1N=Cc1ccccc1", "read by": "broth dilution", "agent": "Cryptococcus spp.", "endpoint": "MIC", "strain": "28957", "value": "8 µg/mL"}
{"structure": "Nc1ccc2cc([N+](=O)[O-])cc(S(=O)(=O)[O-])c2c1", "read by": "cytopathic effect", "cell line": "Human amnion AV3 cells", "agent": "Herpes simplex virus", "endpoint": "inhibition", "tested at": "5 µg/mL", "value": "0%"}
{"structure": "C=Cc1cn([C@@H]2O[C@H](CO)[C@@H](O)[C@@H]2O)c(=O)[nH]c1=O", "read by": "plaque count", "cell line": "HELF", "agent": "Varicella zoster virus", "endpoint": "inhibition", "strain": "Kawaguchi", "tested at": "0.01 µg/mL", "value": "0%"}
{"structure": "O=S(=O)([O-])c1ccc2c(S(=O)(=O)[O-])cc(S(=O)(=O)[O-])cc2c1", "read by": "cytopathic effect", "cell line": "Human amnion AV3 cells", "agent": "Herpes simplex virus", "endpoint": "inhibition", "tested at": "50 µg/mL", "value": "20%"}
{"structure": "O=c1[nH]c(=O)n([C@H]2C[C@H](O)[C@@H](CO)O2)cc1/C=C/Br", "read by": "plaque count", "cell line": "HELF", "agent": "Varicella zoster virus", "endpoint": "inhibition", "strain": "OKA", "tested at": "0.01 µg/mL", "value": "50%"}
{"structure": "O=S(=O)(O)c1ccc2ccc(S(=O)(=O)O)cc2c1", "read by": "cytopathic effect", "cell line": "Human amnion AV3 cells", "agent": "Herpes simplex virus", "endpoint": "inhibition", "tested at": "50 µg/mL", "value": "10%"}
{"structure": "CCc1cn([C@@H]2O[C@H](CO)[C@@H](O)[C@@H]2O)c(=O)[nH]c1=O", "read by": "plaque count", "cell line": "HELF", "agent": "Varicella zoster virus", "endpoint": "inhibition", "strain": "OKA", "tested at": "1000 µg/mL", "value": "53%"}
{"structure": "Cc1cc(-c2ccc(N=Nc3c(S(=O)(=O)O)cc4cc(S(=O)(=O)O)cc(N)c4c3O)c(C)c2)ccc1N=Nc1c(S(=O)(=O)O)cc2cc(S(=O)(=O)O)cc(N)c2c1O", "read by": "cytopathic effect", "cell line": "Human conjunctiva cells", "agent": "Herpes simplex virus", "endpoint": "inhibition", "tested at": "10 µg/mL", "value": "100%"}
{"structure": "Oc1ccccc1N=Cc1ccc(F)cc1", "agent": "Cryptococcus gattii", "endpoint": "MIC99", "strain": "23/10993", "value": "5.7 µg/mL"}

2 of the rows above, restated:

structure | read by | cell line | agent | endpoint | strain | tested at | value
Oc1ccccc1N=Cc1ccccc1 | broth dilution | - | Cryptococcus spp. | MIC | 28957 | - | 8 µg/mL
CCc1cn([C@@H]2O[C@H](CO)[C@@H](O)[C@@H]2O)c(=O)[nH]c1=O | plaque count | HELF | Varicella zoster virus | inhibition | OKA | 1000 µg/mL | 53%